Measurements as given in US20080260774A1, “Alpha-galactosyl ceramide analogs and their use as immunotherapies” (priority 2007, published 2008).

System: tetanus toxoid (TT)
Assay: Adjuvant effect on tetanus toxoid (TT) protein vaccine
Type: in vivo, mouse
Conditions: vaccinated day 0 and day 28

α-Galactosyl ceramide
production of anti-TT-specific IgG antibody: enhanced
